Measured values from several laboratories, pooled; numbers as filed in NIAID ChemDB.

Common to all: tests in culture

Inhibition is in % at the dose shown (toxicity tests: loss of growth or viability). Blank or dashed fields: not listed here. Rows are shuffled and stem from different studies. ECn: concentration that inhibits the pathogen or its effect by n%.

smiles,species,strain,cell line,measure,dose,value
CCC(CC)[C@H](NC(C)=O)[C@@H]1[C@H](O)[C@@H](C(=O)O)C[C@H]1N=C(N)N,Influenza A virus,H5N1 A/duck/MN/1525/81,MDCK,EC50,,0.01 µM
CC(N)C12CC3CC(CC(C3)C1)C2,Influenza A virus,A/Weybridge,CEF,EC50,,0.2 µM
CC1(CO)CCC(Cn2cnc3c(=O)[nH]cnc32)C1(C)C,Influenza A virus (H2N2),JAPAN/305/57,MDCK,EC50,,>250 µg/mL
NC12CC3CC(CC(C3)C1)C2,Influenza A virus (H2N2),A2/ADACHI,CEF,inhibition,4.7 µg/mL,96.2%
CC1(CO)CCC(Cn2nnc3c(=O)[nH]c(N)nc32)C1(C)C,Influenza A virus (H2N2),JAPAN/305/57,MDCK,EC50,,>50 µg/mL
CCCC(CCC)C(NC(C)=O)C1CC(C(=O)O)CC1N=C(N)N,Influenza A virus,H5N1 A/duck/MN/1525/81,MDCK,EC50,,0.01 µM
CC1(CO)CCC(Cn2nnc3c(Cl)ncnc32)C1(C)C,Influenza A virus (H2N2),JAPAN/305/57,MDCK,EC50,,>250 µg/mL
C=C[C@@H](O)C1=C[C@@H](n2cnc3c(N)ncnc32)[C@H](O)[C@@H]1O,Influenza A virus,H2N2 X31,MDCK,EC50,,>50 µg/mL
CC1(CO)CCC(Cn2nnc3c(Cl)nc(N)nc32)C1(C)C,Influenza A virus (H2N2),JAPAN/305/57,MDCK,EC50,,>50 µg/mL
C#C[C@H](O)C1=C[C@@H](n2cnc3c(N)ncnc32)[C@H](O)[C@@H]1O,Influenza A virus,H2N2 JAPAN 57,MDCK,EC50,,>50 µg/mL
CC1(CO)CCC(Cn2cnc3c(N)nc(N)nc32)C1(C)C,Influenza A virus (H2N2),JAPAN/305/57,MDCK,EC50,,>50 µg/mL
CC(=O)N[C@H]1[C@H]([C@H](O)[C@H](O)CO)OC(C(=O)O)=C[C@@H]1N=C(N)N,Influenza A virus,H5N8 A/DK/IRE/83,MDCK,inhibition,0.0083 µM,90%
CC[C@@H](O)C1=C[C@@H](n2cnc3c(N)ncnc32)[C@H](O)[C@@H]1O,Influenza A virus,H2N2 X31,MDCK,EC50,,>250 µg/mL
CC1(CO)CCC(Cc2nc3ncnc(N)c3[nH]2)C1(C)C,Influenza A virus (H2N2),JAPAN/305/57,MDCK,EC50,,>250 µg/mL
CCC(CC)[C@H](NC(C)=O)[C@@H]1C[C@@H](C(=O)O)C[C@H]1N=C(N)N,Influenza A virus,H5N1 A/duck/MN/1525/81,MDCK,EC50,,0.022 µM

The last 2 rows once more:

CC1(CO)CCC(Cc2nc3ncnc(N)c3[nH]2)C1(C)C ; species: Influenza A virus (H2N2) ; strain: JAPAN/305/57 ; cell line: MDCK ; measure: EC50 ; value: >250 µg/mL
CCC(CC)[C@H](NC(C)=O)[C@@H]1C[C@@H](C(=O)O)C[C@H]1N=C(N)N ; species: Influenza A virus ; strain: H5N1 A/duck/MN/1525/81 ; cell line: MDCK ; measure: EC50 ; value: 0.022 µM